Measurements taken from the supplement of paper PMC9931576.
Human monoclonal antibodies against the spike receptor-binding domain (heavy:light variable regions). IC50 against pseudoviruses bearing the spike of naturally observed variants; lower = stronger; >10 µg/ml means not reached at the top dose. No active / inactive call. The stated detection limit is 0.0005 µg/ml; values near or below 0.001 µg/ml lie at the floor of the assay.

B1: BD55-6385 (protein)
chain 1: EVQLVESGGGLVQPGGSLRLSCAASGFTLSTYWMNWVRQAPGKGLEWVANIKQDGYEKYYLDSVQGRFTISRDNAKNSLYLQMNSLRAEDTAVYYCARALDPVDCSGGSCYSDSFDYWGHGTLVTVSS
chain 2: EILLTQSPATLSLSPGERATLSCRASQSVRNYLAWYQQKPGQAPRLLIYDTSNRATGIPARFSGSGSGTDFTLTISSLEPEDFAVYYCQRRTNWPPRYTFGQGTKLEIK
B2: BD55-1237 (protein)
chain 1: QVQLVESGGGVVQPGRSLRLSCATSDFTSNTYGIHWVRQAPGKGLEWVAVIWSDGSHEYYADSVKGRFTISRDNSKNTVYLQMASLRPEDTALYYCAKSPWLRGSFDVWGQGTVVPVSS
chain 2: NFLLTQPHSVSESPGKTVTISCSGSSGYIASNYVQWYQQRPGSAPIVVMYEDNQRPSGVPDRFSGSIDSSSNSASLTISGLKTEDEADYYCQSYDSDNRAWVFGGGTKLTVL
B3: BD55-6383 (protein)
chain 1: QVQLVQSGSELKKPGASVKVSCKASGYTFSTYAIKWVRQAPGQGLEWMGWINTNTGNPTYAQGFTGRFVFSLDTSVSTAFLQISSLKAEDTAIYYCARVFCSGNACYDVDLWGQGTLVTISS
chain 2: QSVLTQPPSASGTPGQRVTISCSGSSSNIGSNFVYWYQHLPGAAPKVLIYRNTHRPSGVPDRFSGSKSGSSASLAISGLRSEDEADYYCAAWDDSLSGRMFGGGTKLTVL
B4: BD55-6377 (protein)
chain 1: EVQLLQSGGGLVQPGGSLRLSCAASGFTFSDYVFVWVRQAPGKGLEWVSAIGGSGGATFYADSVKGRFTISRDNSKNRLYLQMNSLRAEDTAVYYCAKDRSPISLVREEGFDYWGQGSLVTVSS
chain 2: DIQMTQSPSSLSASVGDRVTITCRASQFINTYLNWYQQKPGRAPKLLIYSASSLQSGVPSRFSGSGSGTDFTLTISSLQPEDFATYYCQQSFSTPPYTFGQGTKLEIK
B5: BD55-6373 (protein)
chain 1: QLELQESGPGLVKPSETLSLTCTVSGGSISSSDYYWGWIRQPPGKGLEWIGSIYHGWNSRHNPSLKSRVSMSVDTSKNQFSLTVTSVTAADTAVYYCARHSSVRGVIEDNWFDPWGQGTLVTVSS
chain 2: YVLTQPPSVSVAPGQTARITCGGDIIGTKSVHWYQQKPGQAPVLVVYDDSDRPSGIPERFSGSNSGNTATLTITRVEAGDEADYYCQVWDSSTGWVFGGGTKLTVL
B6: BD-515 (protein)
chain 1: EVQLVESGGGLVQPGGSLRLSCAASEFIVSRNYMSWVRQAPGKGLEWVSVIYSGGSTFYADSVKGRFTISRDNSKNTLYLQMNSLRAEDTGVYYCARDRGLVSDYWGQGTLVTVSS
chain 2: DIQMTQSPSSLSASVGDRVTITCQASQDINKYLNWYQQKPGKAPKLLIFDASHLETGVPSRFSASGSGTDFTFTISSLQPEDIATYYCHQYDNLPRTFGQGTRLEIK

molecular target: SARS-CoV-2 Omicron BA.1 spike pseudovirus; assay: pseudovirus neutralization IC50; higher = weaker neutralization
Protocol: (§1)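 Single-round VSV luciferase pseudovirus mixed with antibody dilutions for 1 h and put on Huh-7 cells for about a day; IC50 from the dose curve.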

B1 and B2 cannot be ordered by “pseudovirus neutralization IC50” value: over 10 µg/mL for the first, over 10 µg/mL for the second.

B3 and B4 cannot be ordered by “pseudovirus neutralization IC50” value: over 10 µg/mL for the first, over 10 µg/mL for the second.

First: B5
Second: B6
The “pseudovirus neutralization IC50” value of the first is higher: over 10 µg/mL for the first, 0.00467 µg/mL for the second.

molecular target: SARS-CoV-2 Omicron BA.2 spike pseudovirus; assay: as above
Protocol: as §1

First: B1
Second: B2
The “pseudovirus neutralization IC50” value of the first is lower: 0.718 µg/mL for the first, over 10 µg/mL for the second.

B3 and B4 cannot be ordered by “pseudovirus neutralization IC50” value: over 10 µg/mL for the first, over 10 µg/mL for the second.

Going from B5 to B6, the “pseudovirus neutralization IC50” value falls from over 10 µg/mL to 0.00491 µg/mL.

molecular target: SARS-CoV-2 Omicron BA.2.75 spike pseudovirus; assay: as above
Protocol: as §1

B1 and B2 cannot be ordered by “pseudovirus neutralization IC50” value: over 10 µg/mL for the first, over 10 µg/mL for the second.

B3 and B4 cannot be ordered by “pseudovirus neutralization IC50” value: over 10 µg/mL for the first, over 10 µg/mL for the second.

Compared with B5, B6 is lower in “pseudovirus neutralization IC50” value: over 10 µg/mL for the first, 0.208 µg/mL for the second.

molecular target: SARS-CoV-2 Omicron BA.5 spike pseudovirus; assay: as above
Protocol: as §1

B1 and B2 cannot be ordered by “pseudovirus neutralization IC50” value: over 10 µg/mL for the first, over 10 µg/mL for the second.

B3 and B4 cannot be ordered by “pseudovirus neutralization IC50” value: over 10 µg/mL for the first, over 10 µg/mL for the second.

First: B5
Second: B6
The “pseudovirus neutralization IC50” value of the first is higher: over 10 µg/mL for the first, 0.00587 µg/mL for the second.

molecular target: SARS-CoV-2 Omicron BQ.1.1 spike pseudovirus; assay: as above
Protocol: as §1

B1 and B2 cannot be ordered by “pseudovirus neutralization IC50” value: over 10 µg/mL for the first, over 10 µg/mL for the second.

B3 and B4 cannot be ordered by “pseudovirus neutralization IC50” value: over 10 µg/mL for the first, over 10 µg/mL for the second.

First: B5
Second: B6
The “pseudovirus neutralization IC50” value of the first is higher: over 10 µg/mL for the first, 0.674 µg/mL for the second.

molecular target: SARS-CoV-2 Omicron XBB spike pseudovirus; assay: as above
Protocol: as §1

B1 and B2 cannot be ordered by “pseudovirus neutralization IC50” value: over 10 µg/mL for the first, over 10 µg/mL for the second.

B3 and B4 cannot be ordered by “pseudovirus neutralization IC50” value: over 10 µg/mL for the first, over 10 µg/mL for the second.

Compared with B5, B6 is lower in “pseudovirus neutralization IC50” value: over 10 µg/mL for the first, 0.753 µg/mL for the second.

molecular target: SARS-CoV-2 early D614G spike pseudovirus; assay: as above
Protocol: as §1

First: B1
Second: B2
The “pseudovirus neutralization IC50” value of the first is 6.6-fold lower: 0.0333 µg/mL for the first, 0.221 µg/mL for the second.

First: B3
Second: B4
The “pseudovirus neutralization IC50” value of the first is lower: 0.0247 µg/mL for the first, over 10 µg/mL for the second.

Going from B5 to B6, the “pseudovirus neutralization IC50” value falls from 0.573 µg/mL to 0.0369 µg/mL (16-fold).
